Experimental data published in patent US20110159480A1, “CELL-BASED SCREENING ASSAY TO IDENTIFY MOLECULES THAT STIMULATE IFN-ALPHA/BETA TARGET GENES” (INSTITUT PASTEUR, priority 2009, published 2011).

System: luciferase reporter gene under control of an ISRE element
Assay: ISRE-luciferase reporter in HEK-293T cells treated with recombinant IFN-β, with or without co-expressed measles virus V protein
Assay type: cell-based, human
Details: 1,000 IU/ml recombinant IFN-β added 24 h after transfection, 24 h incubation

B1: IFN-β: recombinant interferon β used as positive control at 1,000 IU/ml (protein, UniProt P01574 22-187, looked up)
Interferon beta: MSYNLLGFLQRSSNFQCQKLLWQLNGRLEYCLKDRMNFDIPEEIKQLQQFQKEDAALTIYEMLQNIFAIFRQDSSSTGWNETIVENLLANVYHQINHLKTVLEEKLEKEDFTRGKLMSSLHLKRYYGRILHYLKAKEYSHCAWTIVRVEILRNFYFINRLTGYLRN
  relative luciferase activity of IFN-treated cells: stimulated
